PubChem BioAssay AID504761, Drosophila RNAi Screening Center, 2011

Screen: 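Genome-wide fly cell screen for genes dengue virus requires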 (primary screen)
System: D.Mel-2 cells from Drosophila
Reagents: long dsRNA against Drosophila genes
Treatment: infection with dengue virus type 2; dose and infection time not stated
Measurement: 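Per well on two replicate plates, imaging gave the percent of cells positive for viral envelope protein, ranked by infection, and a nuclear count of cells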
Scale: infection score: higher = more virus-infected cells; cell count: higher = more cells in the well
Active means: 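Low infection ranks in the two replicates (chance level up to 0.065) followed by a retest with a 1.5-fold or larger significant decrease, p below 0.05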
Meaning of the calls: active = confirmed: knock-down lowers infection; inactive = not picked or not confirmed
In all, the deposit lists about 22,000 reagents; below is a random part of those with a known target gene and a result. Over the whole deposit, 116 (0.52%) were called active. 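Calls depend on retest data that are not deposited; infection was ranked per plate without normalising between plates; the unit of the infection score is not given.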 Raw values vary from plate to plate and are shown uncorrected. Entries without a mark were called inactive. A plus sign joins genes that one reagent is predicted to hit. The record does not give: the amount of reagent, the time to read-out.

no.	gene	dsRNA	infection score, replicate 1	infection score, replicate 2	cell count, replicate 1	cell count, replicate 2
1	CG14598	DRSC12541	3.43	29.5	6971	5894
2	CG14598	DRSC30074	7.44	9.49	5876	6099
3	CG10352	DRSC19353	0.83	2.87	6303	6595
4	CG33191	DRSC27362	8.28	8.31	6886	6651
5	eIF4E4 (eukaryotic translation initiation factor 4E4)	DRSC09701	8.03	9.58	5993	5754
6	CG10958	DRSC17768		11	432	1661
7	CG10958	DRSC29583			304	333
8	CG5214	DRSC15739	10.3	20.8	4332	4135
9	CG5214	DRSC22842	3.18	1.52	6168	6451
10	CG5214	DRSC25298	7.69	5.24	5682	5423
11	BomS1 (Bomanin Short 1)	DRSC22678	4.61	1.82	6960	7103
12	MAN1	DRSC04342	11.7	36	6520	4937
13	CG6304	DRSC02948	4.79	4.36	6101	6260
14	CG6304	DRSC27729	6.44	28.5	6153	5997
15	CG3517	DRSC15492	3.82	1.12	6593	1516
16	CG3517	DRSC26928	5.13	15.3	6720	5996
17	mag (magro)	DRSC11787	1.03	22	580	3956
18	mag (magro)	DRSC25641	1.72	4.77	6403	5659
19	CG31549	DRSC21688	1.18	11.1	6178	6361

Part of the list above in another layout:
| gene | dsRNA | infection score, replicate 1 | infection score, replicate 2 | cell count, replicate 1 | cell count, replicate 2 |
| --- | --- | --- | --- | --- | --- |
| CG33191 | DRSC27362 | 8.28 | 8.31 | 6886 | 6651 |
| eIF4E4 (eukaryotic translation initiation factor 4E4) | DRSC09701 | 8.03 | 9.58 | 5993 | 5754 |
| CG10958 | DRSC17768 | – | 11 | 432 | 1661 |

The list goes on.
no.	gene	dsRNA	infection score, replicate 1	infection score, replicate 2	cell count, replicate 1	cell count, replicate 2
20	CG15529	DRSC15066	7.63	4.85	6329	5789
21	THG (tRNA-histidine guanylyltransferase)	DRSC01896	0.64	5.42	5612	6734
22	CG4467	DRSC15585	13.2	0.52	6189	6597
23	Trs23 (TRAPP subunit 23)	DRSC03190	2.84	2.11	6016	6172
24	Trs23 (TRAPP subunit 23)	DRSC29243	11	5.72	5541	5714
25	gcm2	DRSC03538			483	586
26	gcm2	DRSC29823	4.61	3.51	6078	6658
27	CG17883	DRSC07838	0.9	4.04	6446	5945
28	CG5863	DRSC15898		3.81	325	1024
29	l(2)SH0834 (lethal (2) SH0834)	DRSC02854	6.43	3.05	6328	6466
30	EMC3 (ER membrane protein complex subunit 3)	DRSC02989	3.11	3.32	6686	6587
31	EMC3 (ER membrane protein complex subunit 3)	DRSC28014	9.08	18.1	6026	5643
32	yellow-c + CIAPIN1	DRSC01898	6.22	2.3	6235	6692
33	CG17544	DRSC02624	11.7	19.5	6626	6309
34	CG17544	DRSC25562	0.96	3.19	5524	6105
35	CG31213	DRSC14312	12.6	1.65	3799	5893
36	CG31213	DRSC15647	7.33	3.6	6375	5638
37	Ranbp16	DRSC20160	2.36	2.04	6513	6173
38	E(spl)mdelta-HLH (Enhancer of split mdelta, helix-loop-helix)	DRSC16698	8.19	20.6	6590	3743
39	Galphaf (G protein alpha subunit f)	DRSC11171	0.86	1.87	6376	6464
40	Coq4 + Gorab + frc	DRSC10383	0.68	3.29	6626	6681
41	CG17746	DRSC08521	4.14	8.71	6683	5855
42	CG17746	DRSC23333	1.13	5.43	6931	6649
43	CtsL3 (Cathepsin L3)	DRSC12171	7.05	19.8	1490	6202
44	CtsL3 (Cathepsin L3)	DRSC27036	2.47	2.69	6586	6203
45	fit (female-specific independent of transformer)	DRSC15280	0.81	4.12	6195	6038
46	CG12479	DRSC19459	6.64	1.69	5935	6381
47	Brf (Brf RNA polymerase III subunit)	DRSC14166	6.68	3.4	5181	5357
48	Brf (Brf RNA polymerase III subunit)	DRSC14167	2.87	7.91	5994	5231
49	FoxP (Forkhead box P)	DRSC15159	10	1.35	6122	6374
50	FoxP (Forkhead box P)	DRSC21961	2.81	4.46	6449	6340
51	FoxP (Forkhead box P)	DRSC29407	3.26		1013	462
52	CG12926	DRSC06239	2.52	3.59	6461	6843
53	CG12926	DRSC21930	16.9	26.7	5007	5267
54	Myo95E (Myosin 95E)	DRSC15821	1.53	6.58	6855	6234
55	CG14443	DRSC17936	2.9	4.85	6551	6860
56	CG12158	DRSC22933	0.82	1.21	6683	6634
57	CG10512	DRSC11615	3.99	4.67	6665	6165
58	CG10512	DRSC27914	9.55	13.6	6335	6286
